Target: influenza neuraminidase (N2) (Influenza A virus, UniProt P06820)
Format: biochemical, influenza virus Type A
Conditions: read-out: Neuraminidase Inhibition Activity IC50, N2

By UniProt entry, the sequences of proteins in these tests, tags left out.
UniProt P06820, whole entry, looked up: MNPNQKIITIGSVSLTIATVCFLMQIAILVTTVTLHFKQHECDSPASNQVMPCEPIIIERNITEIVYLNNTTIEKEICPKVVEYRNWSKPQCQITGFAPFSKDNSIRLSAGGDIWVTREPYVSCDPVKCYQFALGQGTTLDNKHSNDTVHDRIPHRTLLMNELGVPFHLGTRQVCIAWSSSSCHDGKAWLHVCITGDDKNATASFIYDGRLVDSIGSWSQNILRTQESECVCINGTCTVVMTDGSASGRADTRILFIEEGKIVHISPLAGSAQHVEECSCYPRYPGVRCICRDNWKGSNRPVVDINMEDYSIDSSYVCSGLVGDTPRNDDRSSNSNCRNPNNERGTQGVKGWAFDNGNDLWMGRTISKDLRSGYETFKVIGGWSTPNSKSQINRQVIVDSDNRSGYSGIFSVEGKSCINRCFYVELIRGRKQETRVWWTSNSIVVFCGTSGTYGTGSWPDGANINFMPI

1-[4-Carboxy-2-(pentylaminolphenyl]-5,5-bis(hydroxymethyl)pyrrolidin-2-one [Example 13]
IC50: 36.4 µM

Source: patent US6509359B1, “Pyrrolidin-2-one compounds and their use as neuraminidase inhibitors” (priority 1997, dated 2003)
